ChEMBL document CHEMBL1800071, “Switching reversibility to irreversibility in glycogen synthase kinase 3 inhibitors: clues for specific design of new compounds” (J Med Chem, 2011)

Protein sequences, listed by entry. Tags and fused reporters are not part of them.
UniProt P00520, whole entry, looked up: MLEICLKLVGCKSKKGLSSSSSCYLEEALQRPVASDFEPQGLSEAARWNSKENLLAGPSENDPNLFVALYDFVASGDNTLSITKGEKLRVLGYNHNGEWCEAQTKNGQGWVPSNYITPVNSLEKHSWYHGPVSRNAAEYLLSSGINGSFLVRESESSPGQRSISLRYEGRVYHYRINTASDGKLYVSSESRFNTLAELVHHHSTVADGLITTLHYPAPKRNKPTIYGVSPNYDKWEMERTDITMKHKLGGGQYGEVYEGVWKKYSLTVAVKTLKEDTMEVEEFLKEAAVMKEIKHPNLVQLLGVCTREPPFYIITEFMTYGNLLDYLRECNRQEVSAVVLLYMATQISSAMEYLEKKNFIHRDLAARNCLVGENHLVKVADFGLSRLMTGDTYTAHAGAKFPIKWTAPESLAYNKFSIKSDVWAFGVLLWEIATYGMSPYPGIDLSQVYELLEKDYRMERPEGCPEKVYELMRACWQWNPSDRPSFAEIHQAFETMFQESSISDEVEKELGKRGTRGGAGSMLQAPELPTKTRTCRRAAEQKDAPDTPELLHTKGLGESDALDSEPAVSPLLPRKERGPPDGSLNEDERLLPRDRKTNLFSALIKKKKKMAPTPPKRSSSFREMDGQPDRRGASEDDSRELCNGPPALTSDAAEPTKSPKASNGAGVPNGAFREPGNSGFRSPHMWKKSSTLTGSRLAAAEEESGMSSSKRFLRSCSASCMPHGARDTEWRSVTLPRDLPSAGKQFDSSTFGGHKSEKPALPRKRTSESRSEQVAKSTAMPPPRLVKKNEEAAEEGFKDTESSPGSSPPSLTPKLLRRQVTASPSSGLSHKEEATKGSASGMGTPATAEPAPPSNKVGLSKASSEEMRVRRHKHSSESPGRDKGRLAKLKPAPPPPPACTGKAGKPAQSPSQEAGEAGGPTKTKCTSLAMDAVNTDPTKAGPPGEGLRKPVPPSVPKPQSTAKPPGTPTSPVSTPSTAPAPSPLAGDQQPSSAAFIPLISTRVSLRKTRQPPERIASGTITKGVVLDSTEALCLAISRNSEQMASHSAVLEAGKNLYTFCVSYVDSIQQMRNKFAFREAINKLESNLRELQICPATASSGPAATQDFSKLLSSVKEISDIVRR
UniProt P63086, whole entry, looked up: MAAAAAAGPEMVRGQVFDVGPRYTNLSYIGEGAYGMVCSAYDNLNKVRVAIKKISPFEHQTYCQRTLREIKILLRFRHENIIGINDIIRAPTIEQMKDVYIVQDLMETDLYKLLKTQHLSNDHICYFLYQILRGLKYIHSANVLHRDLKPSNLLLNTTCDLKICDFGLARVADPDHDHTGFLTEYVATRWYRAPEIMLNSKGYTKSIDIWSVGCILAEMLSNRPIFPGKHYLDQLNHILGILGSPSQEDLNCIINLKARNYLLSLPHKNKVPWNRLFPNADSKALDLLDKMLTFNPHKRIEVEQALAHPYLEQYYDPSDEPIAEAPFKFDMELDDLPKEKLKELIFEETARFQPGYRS

What was measured:
[1] = molecular target: Tyrosine-protein kinase ABL1 (Mus musculus) (UniProt P00520); test: Inhibition of mouse recombinant Abl expressed in Escherichia coli assessed as phosphopoly Gt formation using poly Gt as substrate at 10 uM by fluorescence polarization method
[2] = molecular target: Mitogen-activated protein kinase 1 (Rattus norvegicus) (UniProt P63086); test: Inhibition of rat recombinant ERK42 expressed in Escherichia coli using MBP as substrate and [gamma-33P]ATP at 10 uM by scintillation counting
[3] = molecular target: Dual specificity mitogen-activated protein kinase kinase 1 (Oryctolagus cuniculus) (UniProt P29678); test: Inhibition of rabbit recombinant MEK1 expressed in Escherichia coli using inactivated MAP kinase as substrate and [gamma-33P]ATP at 10 uM by scintillation counting
[4] = species: Rattus norvegicus; test: Displacement of [125I]-alpha-bungarotoxin from alpha-BGTX-sensitive neuronal nicotinic receptor in rat cerebral cortex at 10 uM; type: tissue-based

Measured: inhibition

Cc1ccc(C(=O)CBr)cc1
< 10%: [1] | [2] | [3] | [4]
